Test results from publication PMC10797010 (Frontiers in Molecular Biosciences, 2023).

Target: T1, wild-type RBD of SARS-CoV-2 spike protein (SARS-CoV-2, UniProt P0DTC2)
T1 construct: also called His-tagged RBD; source: bought: GenScript; not shown: His tag, C-terminal, kept
Test: BLI
Conditions: both partners purified

STIEEQAKTFLDKFNHEAEDLFYQS (also called WT; WT peptide) [wild type ACE2-derived alpha-helix peptide]
Kd: 33 µM
